{
  "source": "patent US7338977B2",
  "about": "“Anti-viral compounds” (Aids Care Pharma Limited, priority 2003, dated 2008)",
  "target": "T1, viral envelope protein gp120 interaction with the cellular receptor protein CD4 (Human immunodeficiency virus type 1 group M subtype B, UniProt P04578)",
  "T1 construct": "viral envelope protein gp120",
  "assay_type": "binding, HIV",
  "conditions": "concentration reducing gp120 interaction with CD4 by 50%; b100 says infected blood; read-out: Test 1 EC50",
  "protocol": "Two tests were performed: Test 1 was performed using infected blood, while Test 2 used cell cultures.\nAll stocks solutions were made 25 mM in distilled water and tested at same concentrations.\nThe procedure was carried out as follows: • 1 Plastic plates were coated with cellular receptor protein CD4. • 2 The plates were washed well before adding a predetermined, appropriate quantity of viral envelope protein gp120 for binding to CD4. • 3 To see inhibition by compounds, different concentrations were added a few minutes before adding gp120. • 4 The mixture was incubated at 37° C. for binding. • 5 The plates were then flashed well and bound gp120 was detected by reaction with anti-HIV antibodies, incubated for 12 hours at 4° C. • 6 The amount of antibody bound was detected by adding anti-Human antibodies attached to an enzyme horse raddish peroxidase. • 7 After another incubation and wash, the quantity of the enzyme was measured by adding substrate o-phenyl diamine (OPD). • 8 The colour developed was read at 492 nm. • 9 All incubations took three days for adding different reagents. The percentage of inhibition by compounds, was calculated from the standard curve obtained by using different dilutions of gp120 alone. Test 2",
  "data": [
    {"substance": "dodecapotassium acetate of p-bromopyrogallol P—F-phenyl tetramer [AC-1]", "values": [
      {"measurement": "EC50", "result": "500 to 1000", "unit": "nM"}
    ]}
  ]
}
